Target: T1, untagged catalytically active CNOT7, purified (human, UniProt Q9UIV1 1-285)
T1 construct: also called untagged CNOT7; 6xHis-CNOT7 (tag kept, in the deadenylation assay)
Assay: BLI
Details: both partners purified

B1: 6xHis-SBP-tagged PieF (Lpg1972) (natural protein)
chain: MKRLIICNGNKLTVCTQAISSGGIVEKYTPIFSLTKESDNELTLELSGVARGYYIIPSELTSSQARAAHLITLLTRAEESQTTDMHKILNSFVSGKITSGSMFNFENDGSFKREPEEAYNLINKI
Kd: 70.4 nM

Source: article PMC11774319, “The Legionella pneumophila effector PieF modulates mRNA stability through association with eukaryotic CCR4−NOT” (mSphere, 2024)
